Source: US20020028807A1, “Non-nucleoside reverse transcriptase inhibitors” (priority 2000, published 2002)

Experiments:
[1] = test system: HIV coding for wild-type reverse transcriptase (WT RT); assay: ELISA (p24) assay of HIV replication in C8166 cell culture, wild-type RT virus; format: cell-based, HIV-1; details: read-out: EC50 WT RT, C8166 cells, extracellular p24, three days
Experimental: (§1) Compounds of the invention were tested for their ability to inhibit HIV replication in cell culture in a 96-well plate assay. Complete RPMI 1640, consisting of RPMI 1640+10% fetal bovine serum, 10 μg/ml gentamycin and 10 μM β-mercaptoethanol was used for dilution of the compound as well as cell growth medium. The T lymphocyte cell line C8166 was infected at a multiplicity of infection of 0.001 with viruses coding for wild-type and mutant reverse transcriptase. Cells were then incubated for three days in the presence of serial dilutions of the compounds of the invention. The supernatant was pooled from eight replica wells and the concentration of extracellular p24 was determined using a commercially available HIV-1 p24 antigen assay kit (Beckman-Coulter®). The level of inhibition (% inhibition) was calculated with the following equation: [formula]

HIV-1 RT V106A = HIV-1 RT V106A (Human immunodeficiency virus type 1 group M subtype B, UniProt P03366, V705A); assay: Reverse transcriptase (RT) assay, V106A mutant; format: biochemical; details: read-out: IC50 V106A
Source text: (§2) Among the enzymes for which Human Immunodeficiency Virus (HIV-1) encodes is a reverse transcriptase (1), so-named because it transcribes a DNA copy from an RNA template. This activity can be quantitatively measured in a cell-free enzyme assay and is based upon the observation that reverse transcriptase is able to use a synthetic template poly r(C) primed with a biotinylated oligo d(G) to transcribe a radio-labelled DNA strand utilising 3H-dGTP as a substrate. The assay described below utilises the wild-type enzyme (which is the predominant form of the enzyme observed in patients infected with HIV-1) and can also be used with mutant RT enzymes (for example, Y181C, prepared by site-directed mutagenesis in which the tyrosine residue at codon 181 has been replaced by a cysteine residue) in analogous assay conditions. This assay allows compounds to be evaluated for their effectiveness at inhibiting the mutant enzymes.
(§3) Some HIV-1 IIIB clone BH10 RT mutants were provided by Dr. C.-K. Shih (Boehringer Ingelheim Pharmaceutials Inc., U.S.A.) in the vector pKK233-2 (Pharmacia). Briefly an HIV RT clone pKRT2 containing only the RT p66 gene regulated by the lac operon/trc promoter was obtained from Dr. W. Summers (Yale University) (2). A variety of specific amino acid substitutions were introduced into the wild-type RT gene by site-directed mutagenesis. RT clones were subcloned into the pKK233-2 bacterial expression vector. Clones provided included wild-type, Val106Ala, Tyr181Cys, Tyr188Cys, Tyr188Leu, Gly190Ala and Pro236Leu. Others were made in-house by site-directed mutagenesis of the pKK233-2 RT clones including Lys103Asn, Lys103Asn/Tyr181Cys, Lys103Asn/Leu100Ile, Lys103Asn/Pro225His, and Lys103Asn/Val108Ile.
(§4) Purification of recombinant reverse transcriptase was performed using a combination of methods previously described (3). A single colony from a fresh plate of transformed JM109 cells was used to initiate growth of a pre-culture grown o/n at 37° C. Two liters of growth medium were inoculated with this pre-culture. […]

HIV-1 RT Y188C = HIV-1 RT Y188C (Human immunodeficiency virus type 1 group M subtype B, UniProt P03366, Y787C); assay: Reverse transcriptase (RT) assay, Y188C mutant; format: biochemical; details: read-out: IC50 Y188C
Source text: as §2
(§5) Some HIV-1 IIIB clone BH10 RT mutants were provided by Dr. C.-K. Shih (Boehringer Ingelheim Pharmaceutials Inc., U.S.A.) in the vector pKK233-2 (Pharmacia). Briefly an HIV RT clone pKRT2 containing only the RT p66 gene regulated by the lac operon/trc promoter was obtained from Dr. W. Summers (Yale University) (2). A variety of specific amino acid substitutions were introduced into the wild-type RT gene by site-directed mutagenesis. […]

HIV-1 RT K103N/Y181C = HIV-1 RT K103N/Y181C (Human immunodeficiency virus type 1 group M subtype B, UniProt P03366, K702N/Y780C); assay: Reverse transcriptase (RT) assay, K103N/Y181C mutant; format: biochemical; details: read-out: IC50 K103N/Y181C; RT double mutant K103N/Y181C
Source text: as §2, §3, §4

HIV-1 RT K103N = HIV-1 RT K103N (Human immunodeficiency virus type 1 group M subtype B, UniProt P03366, K702N); assay: Reverse transcriptase (RT) assay, K103N mutant; format: biochemical; details: read-out: IC50 K103N
Source text: as §2, §5

HIV-1 RT K103N/V108I = HIV-1 RT K103N/V108I (Human immunodeficiency virus type 1 group M subtype B, UniProt P03366, K702N/V707I); assay: Reverse transcriptase (RT) assay, K103N/V108I mutant; format: biochemical; details: read-out: IC50 K103N/V108I; RT double mutant K103N/V108I
Source text: as §2, §5

HIV-1 RT Y181C = HIV-1 RT Y181C (Human immunodeficiency virus type 1 group M subtype B, UniProt P03366, Y780C); assay: Reverse transcriptase (RT) assay, Y181C mutant; format: biochemical; details: read-out: IC50 Y181C
Source text: as §2, §5

[2] = test system: HIV coding for mutant reverse transcriptase K103N/Y181C; assay: ELISA (p24) assay of HIV replication in C8166 cell culture, K103N/Y181C virus; format: cell-based, HIV-1; details: read-out: EC50 K103N/Y181C, C8166 cells, extracellular p24, three days
Experimental: as §1

HIV-1 RT wild-type (WT) = HIV-1 RT wild-type (WT) (Human immunodeficiency virus type 1 group M subtype B, UniProt P03366); assay: Reverse transcriptase (RT) assay, wild-type enzyme; format: biochemical; details: read-out: IC50 WT RT
Source text: as §2, §3, §4

HIV-1 RT K103N/P225H = HIV-1 RT K103N/P225H (Human immunodeficiency virus type 1 group M subtype B, UniProt P03366, K702N/P824H); assay: Reverse transcriptase (RT) assay, K103N/P225H mutant; format: biochemical; details: read-out: IC50 K103N/P225H; RT double mutant K103N/P225H
Source text: as §2, §5

HIV-1 RT Y188L = HIV-1 RT Y188L (Human immunodeficiency virus type 1 group M subtype B, UniProt P03366, Y787L); assay: Reverse transcriptase (RT) assay, Y188L mutant; format: biochemical; details: read-out: IC50 Y188L
Source text: as §2, §3, §4

HIV-1 RT K103N/L100I = HIV-1 RT K103N/L100I (Human immunodeficiency virus type 1 group M subtype B, UniProt P03366, K702N/L699I); assay: Reverse transcriptase (RT) assay, K103N/L100I mutant; format: biochemical; details: read-out: IC50 K103N/L100I; RT double mutant K103N/L100I
Source text: as §2, §5

[3] = test system: HIV coding for mutant reverse transcriptase V106A; assay: ELISA (p24) assay of HIV replication in C8166 cell culture, V106A virus; format: cell-based, HIV-1; details: read-out: EC50 V106A, C8166 cells, extracellular p24, three days
Experimental: as §1

[4] = test system: HIV coding for mutant reverse transcriptase Y181C; assay: ELISA (p24) assay of HIV replication in C8166 cell culture, Y181C virus; format: cell-based, HIV-1; details: read-out: EC50 Y181C, C8166 cells, extracellular p24, three days
Experimental: as §1

[5] = test system: HIV coding for mutant reverse transcriptase Y188L; assay: ELISA (p24) assay of HIV replication in C8166 cell culture, Y188L virus; format: cell-based, HIV-1; details: read-out: EC50 Y188L, C8166 cells, extracellular p24, three days
Experimental: as §1

SMILES | EC50 [1] | IC50 (HIV-1 RT V106A) | IC50 (HIV-1 RT Y188C) | IC50 (HIV-1 RT K103N/Y181C) | IC50 (HIV-1 RT K103N) | IC50 (HIV-1 RT K103N/V108I) | IC50 (HIV-1 RT Y181C) | EC50 [2] | IC50 (HIV-1 RT wild-type (WT)) | IC50 (HIV-1 RT K103N/P225H) | IC50 (HIV-1 RT Y188L) | IC50 (HIV-1 RT K103N/L100I) | EC50 [3] | EC50 [4] | EC50 [5]
CCN1c2ncc(CCOc3cccc4c3ccc[n+]4[O-])cc2C(=O)N(C)c2ccc(Cl)nc21 | 0.4 nM | 661 nM | 64 nM | 51 nM | 36 nM | 44 nM | 22 nM | 11 nM | 10 nM | 17 nM | 439 nM | – | – | – | –
CCN1c2ncc(CCOc3cccc4c3ccc[n+]4[O-])cc2C(=O)Nc2c(C)cc(Cl)nc21 | 0.37 nM | 89 nM | – | 91 nM | 25 nM | 56 nM | 20 nM | 22 nM | 7 nM | 16 nM | 3940 nM | 27 nM | – | – | –
CCN1c2ncc(CCOc3cc[n+]([O-])c4ccccc34)cc2C(=O)N(C)c2ccc(C(F)(F)F)nc21 | 1.6 nM | 893 nM | – | 84 nM | – | – | – | – | 35 nM | – | 578 nM | – | 65 nM | 83 nM | 3.5 nM
